Record: PubChem BioAssay AID624099 (ICCB-Longwood, 2012)

Assay: 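Knock-downs relieving repression by E2 of an HPV18 LCR luciferase reporter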 (primary screen)
Cell system: human C33A cervical carcinoma cells (HPV-negative) stably expressing BPV1 E2 and an HPV18 LCR luciferase reporter
Reagent: siRNA pool against human genes, 40 nM
Time to read-out: 72 h
Read-out: 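Per-well luciferase luminescence, z-scored on each plate against the plate mean and SD with control wells left out, then averaged across three replicate plates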
Direction: mean z-score and z-score: higher = stronger reporter signal, weaker E2 silencing
Rule for the call: 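Mean z ≥ 2 together with z ≥ 2 in two or more of the three replicates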
The whole screen tested about 21,000 reagents; shown is an unselected part. In the full data, 497 (2.4%) are marked active. 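Higher z means weaker E2 silencing; only reporter increases were scored, and knock-downs that hurt cell survival may mask genuine repressor factors.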 Unmarked entries are inactive.

gene	mean z-score	z-score, replicate A	z-score, replicate B	z-score, replicate C
LINC01743 (GeneID 255654)	0.89	0.79	1.19	0.69
MOCS2 (GeneID 4338)	0.23	0.02	0.21	0.44
LOC402626 (retired record) (GeneID 402626)	-0.28	-0.23	-0.26	-0.34
LOC400832 (retired record) (GeneID 400832)	1.2	1.58	1.08	0.95
GET3 (GeneID 439)	-1.73	-1.85	-1.53	-1.8
ZNF892 (GeneID 344065)	2.26	1.85	3.17	1.76
LOC400004 (retired record) (GeneID 400004)	-1.04	-1.01	-1.14	-0.98
KBTBD13 (GeneID 390594)	1.26	1.44	1.23	1.1
RPL31P50 (GeneID 341356)	0.51	0.19	0.73	0.61
FOXJ1 (GeneID 2302)	0.12	0.28	-0.15	0.24
CHD7 (GeneID 55636)	-0.5	-0.19	-0.69	-0.64
AURKC (GeneID 6795)	1.33	1.33	1.71	0.93
EPCIP (GeneID 56245)	0.04	0.24	0.31	-0.42
EXPH5 (GeneID 23086)	0.39	0.59	0.34	0.26
GRSF1 (GeneID 2926)	0.44	0.45	0.42	0.43
SMLR1 (GeneID 100507203)	-0.53	-0.51	-0.55	-0.52
ETFDH (GeneID 2110)	-0.4	-0.39	-0.8	0
AP1AR (GeneID 55435)	0.61	0.83	0.28	0.73
LIN28A (GeneID 79727)	-0.1	-0.16	-0.07	-0.07
GUSBP3 (GeneID 653188)	-0.73	-0.71	-0.63	-0.84
PGM5P1 (retired record) (GeneID 653394)	-0.93	-0.91	-0.73	-1.13
POLR3F (GeneID 10621)	0.31	0.32	0.34	0.25
MYRFL (GeneID 196446)	-0.39	0.04	-0.82	-0.37

Quoted from the entries so far (3 entries):
gene	mean z-score	z-score, replicate A	z-score, replicate B	z-score, replicate C
LOC402626 (retired record) (GeneID 402626)	-0.28	-0.23	-0.26	-0.34
LOC400832 (retired record) (GeneID 400832)	1.2	1.58	1.08	0.95
GET3 (GeneID 439)	-1.73	-1.85	-1.53	-1.8
